A mixed list of measured activities; the numbers were collected in NIAID ChemDB.

Shared fields: growth or infection tests; organism: HIV-1

Conditions beyond the fields shown may differ between rows. An empty or dashed field is not shown. ECn: concentration that inhibits the pathogen or its effect by n%. a–b is a range or a potency band.

structure,strain,cell line,method,setting,endpoint,mutations,result
C[C@H](Cn1cnc2c(N)ncnc21)OCP(=O)(O)O,Clinical isolate,MT-2,recombinant virus assay,,EC50,D67N/T69N/K70R/K103N/M184V/T215F/K219Q,0.004 µM
Cc1cc(CNC(=O)c2nc3n(c(=O)c2O)[C@H](C)COC[C@@H]3N(C)C(=O)C(=O)N(C)C)ccc1F,,HeLa P4-2,single cycle,,EC50,Y143R,0.001 µM
Cc1ccnc2c1NC(=O)c1cccnc1N2C1CC1,p8.9,HEK293T,luciferase,,EC50,,55.64 nM
COc1ccc(N(C)C(=O)[C@H](Cc2ccccc2)NC(=O)C(C)(C)C(=O)N[C@@H](Cc2ccccc2)C(=O)N(C)c2ccc(OC)cc2)cc1,NL4-3,MT-2,luciferase,,EC50,,1.87 µM
CNC(=O)c1c(O)c2ncc(Cc3ccc(F)cc3)c3c2n(c1=O)C[C@H](CN1CCOCC1(C)C)O3,IIIB,MT-2,ATP / luminescence,,EC50,,0.0076 µM
O=S(=O)(Cc1ccccc1I)c1cccc[n+]1[O-],RF,CEM,syncytia,,EC50,,9 µg/mL
Cc1nnc(-c2cccc(-c3cccc(C(=O)N4CCCCC4)c3)c2)o1,X1632,TZM-bl,luminescence,pseudotyped,EC50,,>30 µM
COc1ccc(S(=O)(=O)N(CC(C)C)CC(O)Cc2ccccc2C(=O)NC(C)(C)C)cc1,IIIB,CEM,p24,,EC50,,<1 µM
C=C(C)[C@@H]1CC[C@]2(CO)CC[C@]3(C)[C@H](CC[C@@H]4[C@@]5(C)CC=C(c6ccc(C(=O)O)c(F)c6)C(C)(C)[C@@H]5CC[C@]43C)[C@@H]12,NL4-3,MT-2,luciferase,,EC50,Gag P373S,1 µM
COc1ccc(/C=C/C(=O)O[C@@]23[C@H](O)[C@@H](C)[C@@]4(O)[C@@H](C=C(CO)C[C@]5(O)C(=O)C(C)=C[C@@H]45)[C@@H]2C3(C)C)cc1OC(C)=O,IIIB,C8166,p24 / ELISA,,EC50,,9.54 µM
Cc1occc1C(=S)Nc1ccc(Cl)c(/C=N/OC(C)(C)C)c1,IIIB,CEM,syncytia,,EC50,RT-Y188H,0.64 µM
CC(C)C1=C2[C@H]3CC[C@@H]4[C@@]5(C)CC[C@H](OC(=O)C6C[C@@H](C(=O)O)C6(C)C)C(C)(C)[C@@H]5CC[C@@]4(C)[C@]3(C)CC[C@@]2(NC(=O)C(C)(C)NC(=O)c2ncccn2)CC1=O,NL4-3,MT-4,p24,,EC50,V7A,>0.05 µM
C#C[C@@]1(CO)C=C[C@H](n2cc(C)c(=O)[nH]c2=O)O1,Clinical isolate,MT-2,recombinant virus assay,,EC50,M41L/M184V/L210W/T215Y,1.42 µM
CC1CN(S(=O)(=O)c2cc(F)ccc2CNC(=O)c2nc3n(c(=O)c2O)CCCOC32CCN(C(=O)OCc3ccccc3)CC2)CC(C)N1,NL4-3,MT-2,luciferase / reporter gene,,EC50,,0.01–0.1 µM
C[C@H](Cn1cnc2c(N)ncnc21)OCP(=O)(O)O,,TZM-bl,,,EC50,,6.1 µM
Cc1ccc(S(=O)(=O)N2CCC3(CC2)OCCn2c3nc(C(=O)NCc3ccc(F)cc3-n3nc(C)nc3C)c(O)c2=O)cc1,NL4-3,MT-2,luciferase / reporter gene,,EC50,,0.001–0.01 µM
COc1ccc(S(=O)(=O)N(CC(C)C)C[C@@H](O)CCN(CC2CCCC2)S(=O)(=O)c2cccc(N)c2)cc1,IIIB,CEM,p24,,EC90,,0.1 µM
CCC[C@@]1(CCc2ccccc2)CC(O)=C([C@H](CC)c2cccc(NS(=O)(=O)c3ccc(C(F)(F)F)cn3)c2)C(=O)O1,T21055,MT-4,reporter gene,,EC50,L10F I47V,13903 nM
CCCCCCCCC(=O)O[C@@]12[C@H](OC(=O)/C=C/c3ccc(Br)cc3)[C@@H](C)[C@@]3(O)[C@@H](C=C(CO)C[C@]4(O)C(=O)C(C)=C[C@@H]34)[C@@H]1C2(C)C,IIIB,C8166,syncytia / visual reading,,EC50,,0.0096 µM
Cc1ccc(C(=O)NC2(C(=O)N[C@@]34CC[C@]5(C)[C@H](CC[C@@H]6[C@@]7(C)CC[C@H](OC(=O)C8C[C@@H](C(=O)O)C8(C)C)C(C)(C)[C@@H]7CC[C@]65C)C3=C(C(C)C)C(=O)C4)CC2)cc1,NL4-3,MT-4,p24,,EC50,,<0.005 µM
COc1ccc(N(C)C(=O)[C@H](Cc2ccccc2)NC(=O)c2ccc(F)c(C(=O)N[C@@H](Cc3ccccc3)C(=O)N(C)c3ccc(OC)cc3)c2)cc1,NL4-3,MT-2,luciferase,,EC50,,0.05 µM
CC/C=C\C/C=C\C/C=C\C/C=C\C/C=C\CCCC(=O)O[C@@]12[C@H](O)[C@@H](C)[C@@]3(O)[C@@H](C=C(CO)C[C@]4(O)C(=O)C(C)=C[C@@H]34)[C@@H]1C2(C)C,IIIB,C8166,p24 / ELISA,,EC50,,0.1362 µM
CC[C@@H]1COC[C@H](N(C)C(=O)C(=O)N(C)C)c2nc(C(=O)NCc3ccc(F)cc3)c(O)c(=O)n21,,HeLa P4-2,single cycle,,EC50,Q148R,0.007 µM
Cc1ccc(C)c(CS(=O)(=O)c2cccc[n+]2[O-])c1,RF,CEM,syncytia,,EC50,,7.2 µg/mL
C/C=C/C(=O)OCC1=C[C@H]2[C@@H]3C(C)(C)[C@]3(OC(=O)/C=C/C)[C@H](O)[C@@H](C)[C@]2(O)[C@@H]2C=C(C)C(=O)[C@@]2(O)C1,IIIB,C8166,p24 / ELISA,,EC50,,64.79 µM
CNC(=O)c1c(O)c2ncc(Cc3ccc(F)cc3)c3c2n(c1=O)C[C@H](CNC(C)(C)CO)O3,IIIB,MT-2,ATP / luminescence,,EC50,,0.012 µM
CC(C)C1=C2[C@H]3CC[C@@H]4[C@@]5(C)CC[C@H](OC(=O)C6C[C@@H](C(=O)O)C6(C)C)C(C)(C)[C@@H]5CC[C@@]4(C)[C@]3(C)CC[C@@]2(NC(=O)C(C)(C)NC(=O)c2ccc3nc(-c4cnccn4)[nH]c3c2)CC1=O,NL4-3,MT-4,p24,,EC50,V7A,>0.05 µM
COc1ccc(S(=O)(=O)N(CC[C@H](O)CN2CCN(C(=O)OCc3ccccc3)C[C@H]2C(=O)NC(C)(C)C)CC(C)C)cc1,IIIB,CEM,p24,,EC50,,<1 µM
COc1ccc(N(C)C(=O)[C@H](Cc2ccccc2)NC(=O)NS(=O)(=O)N[C@@H](Cc2cc(F)cc(F)c2)C(=O)N(C)c2ccc(OC)cc2)cc1,NL4-3,MT-2,luciferase,,EC50,,0.02 µM
CC1=C[C@H]2[C@@]3(O)[C@H](C)[C@@H](OC(=O)/C=C/c4ccccc4)[C@]4(O)[C@H]([C@@H]3C=C(CO)C[C@]2(O)C1=O)C4(C)C,IIIB,C8166,p24 / ELISA,,EC50,,19.8 µM
CNC(=O)c1c(O)c2ncc(Cc3ccc(F)cc3)c3c2n(c1=O)C[C@@](C)(C(=O)NC(C)(C)CO)O3,IIIB,MT-2,ATP / luminescence,,EC50,,0.0265 µM
C=C(C)[C@@H]1CC[C@]2(C(=O)O)CC[C@]3(C)[C@H](CC[C@@H]4[C@@]5(C)CC=C(c6ccc(C(=O)NS(C)(=O)=O)cc6)C(C)(C)[C@@H]5CC[C@]43C)[C@@H]12,NL4-3,MT-2,luciferase,,EC50,Gag P373S,1 µM
CN1N=C(N)c2cn([C@@H]3O[C@H](COP(=O)(O)O)[C@@H](O)[C@H]3O)c3ncnc1c23,ED,CEM + CEM-SS,cytopathic effect / XTT,,EC50,,>2.8 µM
CC1=C(C(=O)Nc2ccc(Cl)c(C(=O)OC(C)C)c2)SCCO1,IIIB,CEM,syncytia,,EC50,RT-Y181C,42 µM
COC[C@@H](c1ccc(C(F)(F)F)cc1)N1CCN(C2(C)CCN(C(=O)c3c(C)ncnc3C)CC2)C[C@@H]1C,S,TZM-bl,,,EC50,V535,0.025 µM
C=C(C)[C@@H]1CC[C@]2(C(=O)O)CC[C@]3(C)[C@H](CC[C@@H]4[C@@]5(C)CC=C(c6cccc(S(=O)(=O)NC)c6)C(C)(C)[C@@H]5CC[C@]43C)[C@@H]12,NL4-3,MT-2,luciferase,,EC50,Gag P373S,1 µM
Cc1ncnn1-c1cc(F)ccc1CNC(=O)c1nc2n(c(=O)c1O)CCCOC21CCN(C(=O)C(=O)N(C)C)CC1,NL4-3,MT-2,luciferase / reporter gene,,EC50,,≥0.1 µM
CCOC(=O)NC(C)(C)C(=O)N[C@@]12CC[C@]3(C)[C@H](CC[C@@H]4[C@@]5(C)CC[C@H](OC(=O)C6C[C@@H](C(=O)O)C6(C)C)C(C)(C)[C@@H]5CC[C@]43C)C1=C(C(C)C)C(=O)C2,NL4-3,MT-4,p24,,EC50,,0.00501–0.01 µM
C=CCN(C(=O)[C@H](Cc1cc(F)cc(F)c1)NC(=O)NS(=O)(=O)N[C@@H](Cc1cc(F)cc(F)c1)C(=O)N(CC=C)c1ccc2scnc2c1)c1ccc2scnc2c1,NL4-3,MT-2,luciferase,,EC50,,0.1 µM
Cc1cc(C(=O)NC(C)(C)C(=O)N[C@@]23CC[C@]4(C)[C@H](CC[C@@H]5[C@@]6(C)CC[C@H](OC(=O)C7C[C@@H](C(=O)O)C7(C)C)C(C)(C)[C@@H]6CC[C@]54C)C2=C(C(C)C)C(=O)C3)c(C)o1,NL4-3,MT-4,p24,,EC50,V7A,<0.01 µM
COc1ccc(N(C)C(=O)[C@H](Cc2cc(F)cc(F)c2)Nc2ccnc(N[C@@H](Cc3cc(F)cc(F)c3)C(=O)N(C)c3ccc(OC)cc3)n2)cc1,NL4-3,MT-2,luciferase,,EC50,,9.53 µM
Cc1ncn(-c2cc(F)ccc2CNC(=O)c2nc3n(c(=O)c2O)CCOC32CCN(C(=O)C(=O)N(C)C)CC2)n1,NL4-3,MT-2,luciferase / reporter gene,,EC50,,≥0.1 µM
COc1ccc(S(=O)(=O)N(CC2CCCC2)C[C@@H](O)CN(CCc2ccccc2)CC(=O)c2ccccc2)cc1,IIIB,CEM,p24,,EC90,,1 µM
CCNC(=O)[C@@]1(C)Cn2c(=O)c(C(=O)NCCOC)c(O)c3ncc(Cc4ccc(F)cc4)c(c32)O1,IIIB,MT-2,ATP / luminescence,,EC50,,0.003 µM
Cc1noc(C)c1C(=O)NC(C)(C)C(=O)N[C@@]12CC[C@]3(C)[C@H](CC[C@@H]4[C@@]5(C)CC[C@H](OC(=O)C6C[C@@H](C(=O)O)C6(C)C)C(C)(C)[C@@H]5CC[C@]43C)C1=C(C(C)C)C(=O)C2,NL4-3,MT-4,p24,,EC50,V7A,<0.01 µM
Cc1ccc(C)c(CS(=O)c2ccc(Cl)c[n+]2[O-])c1,IIIB,CEM,syncytia,,EC50,RT-K103N,9 µg/mL
CC(C)C1=C2[C@H]3CC[C@@H]4[C@@]5(C)CC[C@H](OC(=O)C6C[C@@H](C(=O)O)C6(C)C)C(C)(C)[C@@H]5CC[C@@]4(C)[C@]3(C)CC[C@@]2(NC(=O)C2(NC(=O)c3ncccn3)CCC2)CC1=O,NL4-3,MT-4,p24,,EC50,,>0.01 µM
CCOC(=O)C(=O)N1CCC2(C1)OCCn1c2nc(C(=O)NCc2ccc(F)cc2-n2ncnc2C)c(O)c1=O,NL4-3,MT-2,luciferase / reporter gene,,EC50,,≥0.1 µM
Cc1ccc(CNC(=O)c2nc3n(c(=O)c2O)C(C)CCCC3N(C)C(=O)C(=O)N(C)C)cc1F,,HeLa P4-2,single cycle,,EC50,Y143R,0.001 µM
COc1ccc(S(=O)(=O)N(CC2CCCC2)C[C@@H](O)CN(CC(C)C)C(=O)O[C@H]2CCOC2)cc1,IIIB,CEM,p24,,EC50,,<1 µM
C=C(C)[C@@H]1CC[C@]2(C(=O)O)CC[C@]3(C)[C@H](CC[C@@H]4[C@@]5(C)CC=C(c6ccc(C(=O)O)c(F)c6)C(C)(C)[C@@H]5CC[C@]43C)[C@@H]12,NL4-3,MT-2,luciferase,,EC50,Gag P373S,1 µM
CCN(C(=O)[C@H](Cc1cc(F)cc(F)c1)NC(=O)NS(=O)(=O)N[C@@H](Cc1cc(F)cc(F)c1)C(=O)N(CC)c1ccc(NC(=O)OC)cc1)c1ccc(NC(=O)OC)cc1,NL4-3,MT-2,luciferase,,EC50,,1.64 µM
O=C(c1ccccc1)N(CCc1ccccc1)C[C@H](O)CN(CC1CCCC1)S(=O)(=O)Cc1cccc2n[nH]nc12,IIIB,CEM,p24,,EC50,,<1 µM
CN(C(=O)[C@H](Cc1ccccc1)NC(=O)NS(=O)(=O)N[C@@H](Cc1ccccc1)C(=O)N(C)c1ccc(C(C)(C)C)cc1)c1ccc(C(C)(C)C)cc1,NL4-3,MT-2,luciferase,,EC50,,0.27 µM
CCN(C(=O)C(=O)N(C)C)[C@@H]1CC[C@H](OC)Cn2c1nc(C(=O)NCc1ccc(F)cc1)c(O)c2=O,,HeLa P4-2,single cycle,,EC50,E92Q,0.003 µM
CC(C)C1=C2[C@H]3CC[C@@H]4[C@@]5(C)CC[C@H](OC(=O)C6C[C@@H](C(=O)O)C6(C)C)C(C)(C)[C@@H]5CC[C@@]4(C)[C@]3(C)CC[C@@]2(NC(=O)C(C)(C)NC(=O)c2ccc(C(F)(F)F)cc2)CC1=O,NL4-3,MT-4,p24,,EC50,V7A,<0.01 µM
COc1ccc(N(C)C(=O)[C@H](Cc2ccccc2)NC(=O)c2ccc(C(=O)N[C@@H](Cc3ccccc3)C(=O)N(C)c3ccc(OC)cc3)s2)cc1,NL4-3,MT-2,luciferase,,EC50,,0.61 µM

For reference, 3 entries again:

{"structure": "Cc1ccc(C)c(CS(=O)(=O)c2cccc[n+]2[O-])c1", "strain": "RF", "cell line": "CEM", "method": "syncytia", "endpoint": "EC50", "result": "7.2 µg/mL"}
{"structure": "COc1ccc(S(=O)(=O)N(CC(C)C)CC(O)Cc2ccccc2C(=O)NC(C)(C)C)cc1", "strain": "IIIB", "cell line": "CEM", "method": "p24", "endpoint": "EC50", "result": "<1 µM"}
{"structure": "COc1ccc(N(C)C(=O)[C@H](Cc2ccccc2)NC(=O)NS(=O)(=O)N[C@@H](Cc2cc(F)cc(F)c2)C(=O)N(C)c2ccc(OC)cc2)cc1", "strain": "NL4-3", "cell line": "MT-2", "method": "luciferase", "endpoint": "EC50", "result": "0.02 µM"}